Anti-infective test results gathered from many reports (values: NIAID ChemDB through PubChem).

Shared fields: whole-cell or culture tests; species: Plasmodium falciparum; measure: EC50

Blank or dashed fields: not listed here. Conditions beyond the fields shown may differ between rows. ECn: concentration that inhibits the pathogen or its effect by n%.

compound | strain or isolate | cells | method | changes | setting | result
CC(C)CN1C(=O)[C@H](NC(=O)CCNc2ccnc3cc(Cl)ccc23)[C@@H]1/C=C/c1ccccc1 | W2 |  | flow cytometry | Chloroquine-resistant |  | 0.5653 µM
C=CCOc1ccc(/C=C/C(=O)c2cc3ccccc3oc2=O)cc1OC | 3D7 |  | SYBR Green |  |  | 100 µM
Cc1[nH]nc2c1C(c1cc(Cl)cc(-c3ccc(C(=O)OCc4ccccc4)cc3)c1)(C1CCC1)C(C#N)=C(N)O2 | NF54 |  | radiometric |  |  | 0.038 µM
O=C1C(=O)c2ccccc2C(O)=C1c1ccccc1 | 3D7 | Erythrocytes | flow cytometry |  |  | 0.44 µM
CCN(CC)CCCC(C)Nc1ccnc2cc(Cl)ccc12 | K1 |  |  |  |  | 0.198 µM
CCN(CC)CCCC(C)Nc1ccnc2cc(Cl)ccc12 | Dd2 | Red blood cells | SYBR Green |  |  | 0.07 µg/mL
CCN(CC)CCCC(C)Nc1ccnc2cc(Cl)ccc12 | Dd2 |  |  |  | 24 h | >1 µg/mL
CCCCCCCC(=O)NC(CCCC[NH3+])C(=O)NCCCCCCCC(=O)NC(CCCC[NH3+])C(N)=O | FCR3 |  | hypoxanthine uptake |  |  | 16 µM
CCOC(=O)C1=C(O)/C(=C\c2cc(C)n(C3CCN(CCN4CCCCC4)CC3)c2C)N=C1C | K1 |  |  | Chloroquine/pyrimethamine-resistant |  | 2.4 µM
O=C(/C=C/C=C/c1ccc2c(c1)OCO2)c1ccc(Cl)c(Cl)c1 | INDO |  | SYBR Green / fluorescence |  |  | 100 µM
CC(C)C1(c2cc(C#N)cc(C#N)c2)C(C#N)=C(N)Oc2[nH]ncc21 | NF54 |  | radiometric |  |  | 0.49 µM
CCN(CC)CCCC(C)n1c(N)c(-c2nc3ccccc3[nH]2)c2nc(C#N)c(C#N)nc21 | NF54 | Erythrocytes | hypoxanthine uptake / radiometric |  |  | 0.05 µM
C=C(C)[C@@H]1CC[C@](C)(O)[C@H](Br)CC[C@@]2(C)[C@H](Cc3cc(ccc3O)C(=O)O1)C(=C)CC[C@@H]2Br | 3D7 MR4/ATCC | Human O+ erythrocytes | SYBR Green |  |  | 0.8 µM
CCOC(=O)c1ccc(-c2ccc([N+](=O)[O-])cc2)nc1C | D10 |  | LDH |  |  | 61 µM
NCCCCCCCCCCCC(=O)NC(CCCC[NH3+])C(=O)NCCCCCCCCCCCC(=O)NC(CCCC[NH3+])C(=O)NCCCCCCCCCCCC(=O)NC(CCCC[NH3+])C(=O)NCCCCCCCCCCCC(=O)NC(CCCC[NH3+])C(N)=O | FCR3 |  | hypoxanthine uptake |  |  | 2.2 µM
COc1ccc(OC)c(/C=C/C(=O)c2ccc(N3CCN(C)CC3)cc2)c1 |  |  |  |  |  | 10.1 µg/mL
COc1ccc(CCn2c(N)c(-c3nc4ccccc4[nH]3)c3nc(C#N)c(C#N)nc32)cc1 | NF54 | Erythrocytes | hypoxanthine uptake / radiometric |  |  | 0.16 µM
C#[N+][C@@H]1C2C([C@@]3(C)CCC(C(C)(C)Cl)O3)CC[C@](C)([N+]#C)C2CC[C@@]1(C)O | 3D7 |  | SYBR Green |  |  | 0.0084 µM
COc1ccc(OC)c(/C=C/C(=O)c2ccc(N3CCCC3)cc2)c1 |  |  |  |  |  | 5.53 µg/mL
CC(C)CN1C(=O)[C@@H](NCCCNc2ccnc3cc(Cl)ccc23)[C@H]1/C=C/c1ccccc1 | W2 |  | flow cytometry | Chloroquine-resistant |  | 0.4103 µM
CC(C)=CC1CC([C@@H]2CC[C@]3(C)C4CC[C@H]5C(C)(C)[C@@H](O)CC[C@]5(C)[C@H]4CC[C@@]23C)CO1 | D10 |  | LDH |  |  | 128 µM
Cc1[nH]nc2c1C(c1cc(Cl)cc(Cl)c1)(C(C)C)C(C#N)=C(N)O2 | NF54 |  | radiometric |  |  | 2.02 µM
N=C(N)c1ccc(NCCNc2ccc(C(=N)N)cc2N)c(N)c1 | D6 |  | hypoxanthine uptake |  |  | >1 µM
Cc1ccc(N2C(=O)[C@H](NC(=O)CNc3ccnc4cc(Cl)ccc34)[C@@H]2/C=C/c2ccccc2)cc1 | W2 |  | flow cytometry | Chloroquine-resistant |  | 0.4827 µM
Cc1[nH]nc2c1C(c1cc(Cl)cc(-c3ccc(-c4nn[nH]n4)cc3)c1)(C1CCC1)C(C#N)=C(N)O2 | NF54 |  | radiometric |  |  | 2.14 µM
COc1cc(OC)c(OC)cc1/C=C/C(=O)c1ccc(Cl)cc1 | Dd2 |  | SYBR Green / fluorescence |  |  | 6.8 µM
O=c1cc(CNCCNc2ccnc3cc(Cl)ccc23)n(C2CC2)cc1O | K1 |  | radiometric |  |  | 0.36 µM
N=C(N)c1ccc(OCCCCCOc2ccc(C(=N)N)cc2Br)c(Br)c1 | D6 |  | hypoxanthine uptake |  |  | 0.181 µM
COc1ccc(/C=C/C=C/C(=O)c2ccc(OC)cc2)cc1 | 3D7 |  | SYBR Green / fluorescence |  |  | 22.5 µM
O=c1cc(CNCCCNc2ccnc3cc(Cl)ccc23)n(C2CC2)cc1O | 3D7 |  | radiometric |  |  | 0.2 µM
CCN(CC)CCCC(C)Nc1ccnc2cc(Cl)ccc12 |  |  | SYBR Green |  |  | 0.3 µM
COc1cc(OC)c(OC)cc1/C=C/C=C/C(=O)c1ccc2ccccc2c1 | Dd2 |  | SYBR Green / fluorescence |  |  | 25 µM
Cc1ccc(N2C(=O)[C@H](NC(=O)CCCCCNc3ccnc4cc(Cl)ccc34)[C@@H]2/C=C/c2ccccc2)cc1 | W2 |  | flow cytometry | Chloroquine-resistant |  | 0.0898 µM
Cn1cc(O)c(=O)cc1CNCCCNc1ccnc2cc(Cl)ccc12 | 3D7 |  | radiometric |  |  | 0.12 µM
COc1cc2c(NC3CCN(C)CC3)nc(N3CCCN(C)CC3)nc2cc1OCc1ccccc1 | W2 |  | fluorescence |  |  | 0.116 µM
Cc1ccc(N2C(=O)[C@@H](NCCCNc3ccnc4cc(Cl)ccc34)[C@H]2/C=C/c2ccccc2)cc1 | W2 |  | flow cytometry | Chloroquine-resistant |  | 0.1641 µM
COc1cc(OC)c(OC)cc1/C=C/C=C/C(=O)c1ccc(Cl)cc1 | Dd2 |  | SYBR Green / fluorescence |  |  | 36 µM
CCCCCCCCCCCC(=O)NC(CCCC[NH3+])C(=O)NCCCC(=O)NC(CCCC[NH3+])C(=O)NCCCC(=O)NC(CCCC[NH3+])C(=O)NCCCC(=O)NC(CCCC[NH3+])C(N)=O | NF54 |  | hypoxanthine uptake |  |  | >10 µM
CCN(CC)CCCC(C)Nc1ccnc2cc(Cl)ccc12 | 3D7 |  | SYBR Green |  |  | 0.01 µM
C[C@H]1Cc2c([nH]c3cc(Cl)c(F)cc23)[C@@]2(N1)C(=O)Nc1ccc(Cl)cc12 | GNF-Pf4492R-2 |  | SYBR Green / fluorescence | GNF-Pf4492-resistant I203L/P990R |  | 0.00285 µM
N=C(N)c1ccc(OCCCCCOc2ccc(C(=N)N)cc2[N+](=O)[O-])c([N+](=O)[O-])c1 | D6 |  | hypoxanthine uptake |  |  | 0.124 µM
CC1=C2Cc3cc(ccc3O)C(=O)O[C@H](C(C)(C)Br)CC[C@](C)(O)[C@H](Br)CC[C@]2(C)[C@@H](Br)CC1 | 3D7 MR4/ATCC | Human O+ erythrocytes | SYBR Green |  |  | 0.9 µM
C=C(C)C1CC[C@]2(C(=O)O)CC[C@@]3(C)[C@]4(C)CC[C@H]5C(C)(C)[C@@H](OC(C)=O)CC[C@]5(C)[C@H]4CC[C@]3(C)[C@@H]12 | D10 |  | LDH |  |  | >200 µM
O=C(O)CCc1cccc2c1B(O)OC2 | 3D7 |  |  |  |  | 0.044 µM
NCCCCCCCCCCCC(=O)NC(CCCC[NH3+])C(=O)NCCCCCCCCCCCC(=O)NC(CCCC[NH3+])C(=O)NCCCCCCCCCCCC(=O)NC(CCCC[NH3+])C(N)=O | FCR3 |  | hypoxanthine uptake |  |  | 1.4 µM
CN(CCCNc1ccnc2cc(Cl)ccc12)Cc1cc(=O)c(O)cn1C1CC1 | 3D7 |  | radiometric |  |  | 0.3 µM
CCN(CC)CCCNC(=O)c1ccc(-c2cc(C#N)cc(C3(C(C)C)C(C#N)=C(N)Oc4n[nH]c(C)c43)c2)s1 | TM90C2B |  | radiometric |  |  | 1.85 µM
C=CCOc1ccc(/C=C/C2C(=O)OC(C)(C)OC2=O)cc1OC | 3D7 |  | SYBR Green |  |  | >100 µM
O=C(CCNc1ccnc2cc(Cl)ccc12)N[C@H]1C(=O)N(c2ccc(F)cc2)[C@H]1/C=C/c1ccccc1 | W2 |  | flow cytometry | Chloroquine-resistant |  | 0.1482 µM
Cc1[nH]nc2c1C(c1cc(Cl)cc(Cl)c1)(C1CC1)C(C#N)=C(N)O2 | NF54 |  | radiometric |  |  | >2.77 µM
Cc1cn([C@@H]2C[C@H](O)[C@@H](CNS(=O)(=O)c3ccc([N+](=O)[O-])cc3)O2)c(=O)[nH]c1=O |  |  | SYBR Green |  |  | >100 µM
C[C@H]1[C@@H](OC(=O)CCC(=O)O)O[C@@H]2O[C@@]3(C)CC[C@H]4[C@H](C)CC[C@@H]1[C@@]24OO3 | Dd2 | Red blood cells | SYBR Green |  |  | 0.0015 µg/mL
CCCCOC(=O)CC[C@H](NC(=O)c1ccc(-c2cc(C#N)cc(C3(C(C)C)C(C#N)=C(N)Oc4n[nH]c(C)c43)c2)s1)C(=O)OCCCC | TM90C2B |  | radiometric |  |  | 2.6 µM
N#Cc1nc2c(-c3nc4ccccc4[nH]3)c(N)n(CCc3ccc(F)cc3)c2nc1C#N | NF54 | Erythrocytes | hypoxanthine uptake / radiometric |  |  | 0.32 µM
CN(C)c1cc[n+](Cc2ccc(CCc3ccc(-[n+]4ccc(N(C)c5ccc(Cl)cc5)cc4)cc3)cc2)cc1 | 3D7 |  | SYBR Green |  |  | 0.005 µM
Cc1[nH]nc2c1C(C)(c1cc(Cl)cc(Cl)c1)C(C#N)=C(N)O2 | NF54 |  | radiometric |  |  | >2.98 µM
O=C(/C=C/c1ccc(O)cc1)O[C@@H]1C2C=CO[C@H](O[C@@H]3O[C@@H](CO)[C@@H](O)[C@@H](O)[C@@H]3O)C2[C@]2(CO)O[C@H]12 | W2 Mef |  | hypoxanthine uptake / radiometric |  |  | 1.02 µM
CCOc1ccc(F)cc1C1(O)c2cc(Cl)ccc2NC1N | Dd2 |  |  |  |  | 0.065 µM
O=c1cc(CNCCCCNc2ccnc3cc(Cl)ccc23)n(C2CC2)cc1O | K1 |  | radiometric |  |  | 0.36 µM
COc1ccc(OC)c(/C=C/C(=O)c2ccc(-n3cccc3)cc2)c1 |  |  |  |  |  | 6.36 µg/mL
C[C@@H]1CC[C@]2(C=O)CC[C@]3(C)C(=CCC4[C@@]5(C)C[C@H](O)[C@H](O)C(C)(C)C5CC[C@]43C)C2[C@]1(C)O | W2 Mef |  | hypoxanthine uptake / radiometric |  |  | 1.86 µM
COc1cc(C(=N)N)ccc1OCCCCOc1ccc(C(=N)N)cc1OC | W2 |  | hypoxanthine uptake |  |  | 0.403 µM
Cn1nc(C(F)(F)F)c(-c2ccc(Br)cc2)c1NC(=O)Nc1ccc(F)cc1F | KAE678R-3 |  | SYBR Green / fluorescence | KAE678-resistant (I203M/I263V) |  | 1.6 µM
COc1ccc(/C=C/C(=O)c2ccc(N3CCOCC3)cc2)c(OC)c1 |  |  |  |  |  | 2.95 µg/mL
Cc1ccc(N2C(=O)[C@@H](NCCNc3ccnc4cc(Cl)ccc34)[C@H]2/C=C/c2ccccc2)cc1 | W2 |  | flow cytometry | Chloroquine-resistant |  | 0.0943 µM
CC1=C2Cc3cc(ccc3O)C(=O)OC(C)(C)C(O)CC[C@](C)(O)C(Br)CC[C@]2(C)[C@@H](Br)CC1 | 3D7 MR4/ATCC | Human O+ erythrocytes | SYBR Green |  |  | 14 µM

7 of the rows above, restated:

compound,strain or isolate,cells,method,changes,setting,result
O=C(/C=C/c1ccc(O)cc1)O[C@@H]1C2C=CO[C@H](O[C@@H]3O[C@@H](CO)[C@@H](O)[C@@H](O)[C@@H]3O)C2[C@]2(CO)O[C@H]12,W2 Mef,,hypoxanthine uptake / radiometric,,,1.02 µM
N=C(N)c1ccc(OCCCCCOc2ccc(C(=N)N)cc2Br)c(Br)c1,D6,,hypoxanthine uptake,,,0.181 µM
C[C@@H]1CC[C@]2(C=O)CC[C@]3(C)C(=CCC4[C@@]5(C)C[C@H](O)[C@H](O)C(C)(C)C5CC[C@]43C)C2[C@]1(C)O,W2 Mef,,hypoxanthine uptake / radiometric,,,1.86 µM
O=C(O)CCc1cccc2c1B(O)OC2,3D7,,,,,0.044 µM
COc1ccc(OC)c(/C=C/C(=O)c2ccc(N3CCCC3)cc2)c1,,,,,,5.53 µg/mL
CCN(CC)CCCC(C)n1c(N)c(-c2nc3ccccc3[nH]2)c2nc(C#N)c(C#N)nc21,NF54,Erythrocytes,hypoxanthine uptake / radiometric,,,0.05 µM
Cc1[nH]nc2c1C(c1cc(Cl)cc(Cl)c1)(C1CC1)C(C#N)=C(N)O2,NF54,,radiometric,,,>2.77 µM